In publication PMC4113749 (Toxins, 2014):

Molecular target: isolated TcdA CROPs (TcdA^1875–2710) (Clostridium difficile (strain VPI 10463), UniProt P16154 1875-2710)
Assay: MST

B1: N-terminally EGFP-labeled TcdA^1102–1847 (domain or fragment)
chain: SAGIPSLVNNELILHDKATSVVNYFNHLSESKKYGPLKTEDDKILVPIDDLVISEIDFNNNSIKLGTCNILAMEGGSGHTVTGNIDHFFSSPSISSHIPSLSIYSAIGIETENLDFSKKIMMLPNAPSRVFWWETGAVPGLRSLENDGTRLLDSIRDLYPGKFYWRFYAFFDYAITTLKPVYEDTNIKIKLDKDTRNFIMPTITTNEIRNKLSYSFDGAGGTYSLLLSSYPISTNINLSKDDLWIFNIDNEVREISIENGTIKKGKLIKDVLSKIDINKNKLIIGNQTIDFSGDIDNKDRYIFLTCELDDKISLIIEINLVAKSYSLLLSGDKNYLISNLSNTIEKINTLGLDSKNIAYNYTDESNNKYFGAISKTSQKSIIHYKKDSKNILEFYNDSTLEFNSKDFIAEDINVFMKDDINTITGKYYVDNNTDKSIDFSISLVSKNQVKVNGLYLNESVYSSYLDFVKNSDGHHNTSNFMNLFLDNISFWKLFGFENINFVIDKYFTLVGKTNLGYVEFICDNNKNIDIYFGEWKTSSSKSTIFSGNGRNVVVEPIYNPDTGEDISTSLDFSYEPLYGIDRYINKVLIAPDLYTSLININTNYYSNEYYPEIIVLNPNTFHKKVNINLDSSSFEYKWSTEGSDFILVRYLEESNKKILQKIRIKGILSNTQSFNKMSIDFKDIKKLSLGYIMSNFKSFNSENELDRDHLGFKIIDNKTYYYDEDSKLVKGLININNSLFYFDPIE
  Kd: 3.06 µM
